Compound potency records, mixed from different reports. Data source: NIAID ChemDB in PubChem.

Common to all: growth or infection tests

A number after MIC or MFC names an inhibition level or a share of isolates. ECn is the concentration giving n% inhibition of infection, replication or growth. Neighbouring rows are from separate reports. Inhibition is in % at the dose shown (toxicity tests: loss of growth or viability). Fold resistance: result on the changed form divided by that on wild type. An empty or dashed field is not shown.

SMILES,species,strain or isolate,mutations,cell line,read by,endpoint,tested at,value
COc1ccc(OC)c(Cc2cnc3nc(N)nc(N)c3c2C)c1,Encephalitozoon cuniculi,,,MRC-5 fibroblasts,cytopathic effect,inhibition,10 µg/mL,2%
NC(=O)c1c[se]c([C@@H]2O[C@H](CO)[C@@H](O)[C@H]2O)n1,West Nile virus,Uganda,,VERO,cytopathic effect / visual reading,EC50,,14 µg/mL
N[C@@H]1CN(c2c(F)cc3c(=O)c(C(=O)O)cn([C@@H]4C[C@@H]4F)c3c2Cl)CC12CC2,Staphylococcus aureus,25 strains (methicillin-susceptible),,,,MIC90,,≤0.12 µg/mL
CC(=O)OC[C@H]1O[C@@H](n2ncc(=O)[nH]c2=O)[C@H](OC(C)=O)[C@@H]1OC(C)=O,West Nile virus,Uganda,,VERO,cytopathic effect,EC50,,0.8 µg/mL
Nc1nc(=O)n2ccn([C@@H]3O[C@H](CO)[C@@H](O)[C@H]3O)c2n1,Dengue virus,TYPE 2,,VERO,cytopathic effect,EC50,,10 µg/mL
NC(=O)c1csc([C@@H]2O[C@H](CO)[C@@H](O)[C@H]2O)n1,West Nile virus,NEW YORK,,VERO,cytopathic effect / visual reading,EC50,,308 µg/mL
NC1CCN(c2nc3c(cc2F)c(=O)c(C(=O)O)cn3-c2ccc(F)cc2F)C1,Staphylococcus aureus,25 strains (methicillin-susceptible),,,,MIC90,,≤0.12 µg/mL
CC1=C(/C=C/C(C)=C/C=C/C(C)=C/C=C/C=C(C)/C=C/C=C(C)/C=C/C2=C(C)CCCC2(C)C)C(C)(C)CCC1,Herpes simplex virus 1,KOS,,HeLa,cytopathic effect,EC50,,>200 µg/mL
C#CC[C@@H](C(=O)N[C@H](/C=C/C(=O)OCC)C[C@@H]1CCNC1=O)n1cccc(NC(=O)c2cc(C)on2)c1=O,Rhinovirus,Serotype 36,,H1-HELA,cytopathic effect / XTT,EC50,,0.011 µM
C=CCc1ccc(O)c(-c2ccc(O)c(CC=C)c2)c1,Candida albicans,YL 318,,,broth dilution,MIC,,64 µg/mL
Cc1c(N2C[C@@H](F)[C@@H](C3(N)CC3)C2)c(F)c(N)c2c(=O)c(C(=O)O)cn([C@@H]3C[C@@H]3F)c12,Staphylococcus aureus,25 strains (methicillin-susceptible),,,,MIC50,,0.008 µg/mL
CCC(C)n1ncn(-c2ccc(N3CCN(c4ccc(OC[C@H]5CO[C@](Cn6cncn6)(c6ccc(Cl)cc6Cl)O5)cc4)CC3)cc2)c1=O,Encephalitozoon cuniculi,,,MRC-5 fibroblasts,cytopathic effect,inhibition,0.05 µg/mL,0%
Cc1ccnc2c1NC(=O)c1cccnc1N2C1CC1,HIV-1,,RT-M41L T215Y A98G,MT-4,,EC95,,3 µM
NC[C@@H]1O[C@H](O[C@H]2[C@@H](O)[C@H](O[C@@H]3[C@@H](O)[C@H](N)C[C@H](N)[C@H]3O[C@H]3O[C@H](CO)[C@@H](O)C[C@H]3N)O[C@@H]2CO)[C@H](N)[C@@H](O)[C@@H]1O[C@H]1O[C@H](CO)[C@@H](O)[C@H](O)[C@@H]1O,Herpes simplex virus 1,KOS,,HeLa,cytopathic effect,EC50,,>200 µg/mL
COc1c(N2C[C@@H]3CCCN[C@@H]3C2)c(F)cc2c(=O)c(C(=O)O)cn(C3CC3)c12,Haemophilus influenzae,38 strains (ampicillin-susceptible),,,,MIC50,,0.03 µg/mL
Nc1[nH]c(=O)ncc1F,Encephalitozoon cuniculi,,,MRC-5 fibroblasts,cytopathic effect,inhibition,10 µg/mL,0%
O=c1cnn([C@@H]2O[C@H](CO)[C@@H](O)[C@H]2O)c(=O)[nH]1,West Nile virus,Uganda,,VERO,cytopathic effect,EC50,,0.9 µg/mL
Nc1ncnc2c1ncn2C[C@H](CO)OCP(=O)(O)O,Adenovirus,adenoid 75 (TYPE 5),,,virus yield,EC90,,0.1 µg/mL
CCn1cc(C(=O)O)c(=O)c2cc(F)c(N3CCN(C)CC3)cc21,Encephalitozoon cuniculi,,,MRC-5 fibroblasts,cytopathic effect,inhibition,20 µg/mL,35%
Nc1ccn([C@@H]2C=C(CO)[C@@H](O)[C@@H]2O)c(=O)n1,West Nile virus,Uganda,,VERO,cytopathic effect,EC50,,0.046 µg/mL
Nc1ccn(C[C@@H](CO)OCP(=O)(O)O)c(=O)n1,Adenovirus,TAK (TYPE 41),,,virus yield,EC90,,0.2 µg/mL
CC1=C(/C=C/C(C)=C/C=C/C(C)=C/C=O)C(C)(C)CCC1,Herpes simplex virus 1,KOS,,HeLa,cytopathic effect,EC50,,>200 µg/mL
Nc1ccn([C@@H]2C[C@H](CO)[C@@H](O)[C@H]2O)c(=O)n1,Vesicular stomatitis virus,,,VERO,cytopathic effect,EC50,,7 µg/mL
Cc1ccc(C(=O)Nc2ccc(S(=O)(=O)O)c3cc(S(=O)(=O)O)cc(S(=O)(=O)O)c23)cc1NC(=O)c1cccc(NC(=O)Nc2cccc(C(=O)Nc3cc(C(=O)Nc4ccc(S(=O)(=O)O)c5cc(S(=O)(=O)O)cc(S(=O)(=O)O)c45)ccc3C)c2)c1,West Nile virus,NEW YORK,,VERO,cytopathic effect,EC50,,56 µg/mL
C[C@@H]1CN(c2c(F)c(N)c3c(=O)c(C(=O)O)cn(C4CC4)c3c2F)C[C@H](C)N1,Haemophilus influenzae,38 strains (ampicillin-susceptible),,,,MIC90,,0.008 µg/mL
NC(=O)c1csc([C@@H]2O[C@H](COP(=O)(O)CP(=O)(O)OC[C@H]3O[C@@H](n4cnc5c(N)ncnc54)[C@H](O)[C@@H]3O)[C@@H](O)[C@H]2O)n1,West Nile virus,Uganda,,VERO,cytopathic effect / visual reading,EC50,,22 µg/mL
CCCSc1ccc2nc(NC(=O)OC)[nH]c2c1,Encephalitozoon cuniculi,,,MRC-5 fibroblasts,cytopathic effect,inhibition,0.01 µg/mL,100%
Nc1ncn([C@@H]2O[C@H](CO)[C@@H](O)[C@H]2O)c(=O)n1,West Nile virus,NEW YORK,,VERO,cytopathic effect / visual reading,EC50,,>320 µg/mL
CCO/N=C/c1ccc(OCCC2CCN(c3ccc(C)nn3)CC2)cc1,Rhinovirus,5986 (ICAM-1 receptor group 18),,KB,neutral red,EC50,,0.652 µM
Nc1ncnc2c1ncn2C[C@@H](CO)OCP(=O)(O)O,Adenovirus,adenoid 6 (TYPE 2),,,cytopathic effect,EC50,,10 µg/mL
COc1c(C)c2c(c(O)c1C/C=C(\C)CCC(=O)O)C(=O)OC2,West Nile virus,Uganda,,VERO,cytopathic effect,EC50,,0.12 µg/mL
C[C@H]1NCc2cc(-c3ccc4c(=O)c(C(=O)O)cn(C5CC5)c4c3OC(F)F)ccc21,Staphylococcus aureus,25 strains (methicillin-susceptible),,,,MIC50,,0.03 µg/mL
Nc1ncnc2c1ncn2[C@@H]1O[C@H](CC(N)CC[C@H](N)C(=O)O)[C@@H](O)[C@H]1O,Herpes simplex virus 1,KOS,,HeLa,cytopathic effect,EC50,,>200 µg/mL
C[C@@H]1CN(c2c(F)c(N)c3c(=O)c(C(=O)O)cn(C4CC4)c3c2F)C[C@H](C)N1,Encephalitozoon cuniculi,,,MRC-5 fibroblasts,cytopathic effect,inhibition,20 µg/mL,66%
CN(C)c1ccc(O)c2c1C[C@H]1C[C@H]3[C@H](N(C)C)C(=O)C(C(N)=O)=C(O)[C@@]3(O)C(=O)C1=C2O,Staphylococcus aureus,24 strains (ofloxacin-susceptible),,,,MIC50,,0.12 µg/mL
CC(C)(CO)C(=O)SCCOP(=O)(NCc1ccccc1)OC[C@H]1O[C@@H](n2cnc3c(=O)[nH]c(N)nc32)[C@](C)(O)[C@@H]1O,Hepatitis C virus,GT1a,Q30R,Replicon cells,replicon,fold resistance,,1.04
CCCCCCCCCC(=O)N[C@H]1[C@H](Oc2c3cc4cc2Oc2ccc(cc2Cl)[C@@H](O[C@@H]2O[C@H](CO)[C@@H](O)[C@H](O)[C@H]2NC(C)=O)[C@@H]2NC(=O)[C@H](NC(=O)[C@@H]4NC(=O)[C@H]4NC(=O)[C@@H](Cc5ccc(c(Cl)c5)O3)NC(=O)[C@H](N)c3ccc(O)c(c3)Oc3cc(O)cc4c3)c3ccc(O)c(c3)-c3c(O[C@H]4O[C@H](CO)[C@@H](O)[C@H](O)[C@@H]4O)cc(O)cc3[C@H](C(=O)O)NC2=O)O[C@H](CO)[C@@H](O)[C@@H]1O,Staphylococcus aureus,25 strains (ofloxacin-resistant),,,,MIC50,,1 µg/mL
CC[C@H]1OC(=O)[C@H](C)[C@@H](O[C@H]2C[C@@](C)(OC)[C@@H](O)[C@H](C)O2)[C@H](C)[C@@H](O[C@@H]2O[C@H](C)C[C@H](N(C)C)[C@H]2O)[C@](C)(O)C[C@@H](C)/C(=N\OCOCCOC)[C@H](C)[C@@H](O)[C@]1(C)O,Encephalitozoon cuniculi,,,MRC-5 fibroblasts,cytopathic effect,inhibition,50 µg/mL,0%
CC1(C)[C@@H]2CC[C@@]1(C)C(=O)[C@H]2Br,Herpes simplex virus 1,KOS,,HeLa,cytopathic effect,EC50,,>200 µg/mL